Pooled drug test results. Numbers come from NIAID ChemDB, via PubChem.

All rows: toxicity to cultured cells; measure: CC50

CCn: concentration that lowers growth or viability of the cells by n%. Conditions beyond the fields shown may differ between rows. Blank or dashed fields: not listed here.

SMILES | method | cells | result
O=S(=O)(Cc1ccccc1I)c1cccc[n+]1[O-] | cell count | CEM | 25 µg/mL
CCOC(=O)COc1ccc(C=O)cc1 |  | HepG2 | >20 µM
O=S(=O)(c1cccc2cnccc12)N1CCNCC1 |  | OM-10.1 | 11.5 µg/mL
CCCCCCCCCCCC(=O)c1c(O)cc(O)cc1O | resazurin | NCI-H187 | 5.6 µg/mL
CCOC(=O)CCCCCOc1cccc(CN(C(=O)c2ccc(Br)cc2)C(C)C)c1 |  | BJ | >20 µM
Cc1nc(N(C)C(=O)Cc2ccc(-c3ccccn3)cc2)sc1S(N)(=O)=O | MTT | HEF | >30 µM
O=C(O)c1c(=O)c2cc(F)c(N3CCC4(CC3)OCCO4)cc2n2c1sc1ccccc12 | MTT | Vero mammalian cells | >137.5 µM
CC(C)N(Cc1ccccc1OCC(=O)O)C(=O)c1ccc(-c2ccc3c(c2)OCO3)cc1 |  | RAJI | >20 µM
Nc1ncnc2c1c(-c1ccoc1)cn2[C@@H]1O[C@H](CO)[C@@H](O)C1(F)F | XTT | Replicon cells | 20.05 µM
CC(Cl)(c1ccccc1)S(=O)(=O)c1cccc[n+]1[O-] | cell count | CEM | 10 µg/mL
CNc1nc2c(Cl)cc(Cl)cc2n1COCCO |  | KB | >100 µM
COC1=CC(=O)c2c(O)c3c(c(O)c2C1=O)CC(C)(O)OC3 | MTT | Panc-1 | 2.7 µg/mL
O=C(O)c1c(=O)c2cc([N+](=O)[O-])c(N3CCN(C(c4ccccc4)c4ccc(Cl)cc4)CC3)cc2n2c1sc1ccccc12 | MTT | Vero mammalian cells | 50 µM
O=c1[nH]c(=O)n([C@@H]2S[C@H](CO)[C@@H](O)[C@@H]2F)cc1I |  | CCRF-HSB-2 | 144 µM
O=c1[nH]c(=O)n([C@H]2C[C@H](O)[C@@H](CO)O2)cc1/C=C/Br |  | CD4+ T lymphocytes | 90 µM
CC(C)n1c(-c2cccc(NC(=O)Nc3cccc(Cl)c3)c2)n[nH]c1=O |  | NHDF | 20 µM
CC(C)N(Cc1cccc(OCCCCCC(=O)OC(=O)O)c1)C(=O)c1ccc(-c2cccc3ccccc23)cc1 |  | RAJI | >20 µM
O=C(Nc1cccc(F)c1)Nc1cccc(C2=NNC(=O)C23CCCCC3)c1 |  | NHDF | >31 µM
COC(=O)C(c1ccccc1C)S(=O)c1cccc[n+]1[O-] | cell count | CEM | 52 µg/mL
Nc1ncnc2c1c(-c1cccs1)cn2[C@@H]1O[C@H](CO)[C@@H](O)C1(F)F | XTT | Replicon cells | 26.36 µM
c1ccc(COc2cccnc2SCc2ccccc2)cc1 | cell count | CEM | 9.7 µg/mL
CCc1cn([C@@H]2O[C@H](CO)[C@@H](O)[C@@H]2F)c(=O)[nH]c1=O |  | CCRF-HSB-2 | >366 µM
O=C(NCc1c(F)cc(F)cc1F)c1cn2c(c(O)c1=O)C(=O)N1[C@H]3CC[C@H](C3)O[C@@H]1C2 | luminescence | MAGIC-5A | >10 µM
O=C(N/N=C/c1c(O)cc(O)cc1O)Nc1cccc2nsnc12 | luminescence | Cf2Th-CD4/CCR5 | 64 µM
Cn1c2ccccc2c(=O)c2c(O)cccc21 |  | U-937 | 35 µg/mL
Nc1ncnc2c1c(-c1ccccc1)cn2[C@@H]1O[C@H](CO)[C@@H](O)C1(F)F | XTT | Replicon cells | >44 µM
OCCOCn1c(Br)nc2cc(Cl)c(Cl)cc21 |  | KB | >100 µM
Nc1nc2c(ncn2[C@@H]2C[C@H](CO)[C@H]2CO)c(=O)[nH]1 |  | CD4+ T lymphocytes | 6.4 µM
COc1cccc2[nH]c3ccccc3c(=O)c12 |  | OM-10.1 | 17 µg/mL
COc1cc(OC)c(NC(=S)Nc2ccc(NC(=O)c3ccco3)c(C)c2)cc1Cl | MTS | HFF | ≥10 µg/mL
Nc1nc2cc(Cl)c(Cl)cc2n1COC(CO)CO |  | KB | >100 µM
Nc1nc2c(ncn2COC(CO)CO)c(=O)[nH]1 |  | TPA-stimulated BCBL-1 | 120 µM
CC(C)C[C@@H]1NC(=O)[C@H](Cc2c[nH]c3ccccc23)NC(=O)[C@H](CCCN=C(N)N)NC(=O)[C@H](CCCCN)NC(=O)[C@H](C(C)C)NC(=O)[C@@H](CC(C)C)NC1=O | MTT | Lung carcinoma cells | >30 µM
O=S(=O)(Cc1cccc(Br)c1)c1cccc[n+]1[O-] | cell count | CEM | 7.4 µg/mL
COc1cc([C@@H]2CCc3ccc(O)cc3O2)ccc1O | resazurin | NCI-H187 | >20 µg/mL
Cc1cc(-c2ccc(N=Nc3ccc4c(S(=O)(=O)O)cc(S(=O)(=O)O)c(N)c4c3O)c(C)c2)ccc1N=Nc1ccc2c(S(=O)(=O)O)cc(S(=O)(=O)O)c(N)c2c1O |  | ATH8 | >50 µg/mL
Nc1ncnc2c1c(-c1ccsc1)cn2[C@@H]1O[C@H](CO)[C@@H](O)[C@H]1F | XTT | Replicon cells | 27.55 µM
O=C(N/N=C/c1ccc(Cn2cccn2)cc1)Nc1cccc2nsnc12 | luminescence | Cf2Th-CD4/CCR5 | 37.3 µM
CC1(C)C(=O)NN=C1c1cccc(NC(=O)Nc2ccc(F)c(F)c2)c1 |  | NHDF | >20 µM
Cc1ccccc1CS(=O)(=O)c1cccc[n+]1[O-] | cell count | CEM | 23 µg/mL
Nc1ncnc2c1c(-c1ccco1)cn2[C@@H]1O[C@H](CO)[C@@H](O)C1(F)F | XTT | Replicon cells | >44 µM
C/C(=C\CC[C@@H](C)[C@H]1CC[C@@]2(C)C1=CC[C@H]1[C@@]3(C)CC[C@H](O)C(C)(C)[C@@H]3CC[C@@]12C)C(=O)O | XTT | 1A2 | >125 µg/mL
CCCCc1nc2cc(/C=C/C(=O)NO)ccc2n1CCN(CC)CC | sulforhodamine | NFF cells | 1.5 µM
CCCCCCCCCCCCCCCC(=O)OC[C@H]1O[C@H](O[C@@H]2O[C@H](CO)[C@H](O)[C@H](O)[C@H]2O)[C@@H](O)[C@@H](O)[C@@H]1O |  | TZM-b1 | >100 µM
CNc1nc2c(Cl)c(Cl)ccc2n1COC(CO)CO |  | KB | >100 µM
COC(=O)[C@H](C)NP(=O)(OC[C@H]1O[C@@H](n2cc(I)c(=O)[nH]c2=O)C(F)(F)[C@@H]1O)Oc1ccccc1 | MTS | CrFK | >100 µM
COc1ccc2c(c1OC)c(=O)c1ccccc1n2C |  | OM-10.1 | 28 µg/mL
Nc1ncnc2c1ncn2[C@@H]1O[C@H](CO)[C@@H](O)[C@@H]1O |  | CCRF-HSB-2 | 52 µM
COc1ccc(/C=N/NC(=O)Nc2cccc3nsnc23)c(Cl)c1OC | luminescence | Cf2Th-CD4/CCR5 | >112 µM
O=C(O)c1c(=O)c2cc(F)c(N3CCC(O)(c4ccc(Cl)cc4)CC3)cc2n2c1sc1ccccc12 | MTT | Vero mammalian cells | 119.5 µM
O=C(Nc1ccc(NC(=S)Nc2cccc(C(F)(F)F)c2)cc1)c1ccco1 | MTS | HFF | ≥10 µg/mL
CCCCCCCCCCCCCCCC(=O)OC[C@H]1O[C@H](O[C@H]2O[C@H](CO)[C@H](O)[C@H](O)[C@H]2O)[C@@H](O)[C@@H](O)[C@@H]1O |  | TZM-b1 | 48.35 µM
O=C(N/N=C/c1ccc(O)c([N+](=O)[O-])c1)Nc1cccc2nsnc12 | luminescence | Cf2Th-CD4/CCR5 | >112 µM
Cc1ccc(C)c(C(C)S(=O)(=O)c2cc(C)cc[n+]2[O-])c1 | cell count | CEM | 25 µg/mL
O=C(Nc1ccc(NC(=S)Nc2ccccc2)cc1)c1ccco1 | MTS | HFF | ≥10 µg/mL
O=C(Nc1cccc(-c2n[nH]c(=O)n2C2CCCCC2)c1)Nc1ccc(F)c(Cl)c1 |  | NHDF | 14 µM
COc1cc(O)c2c(c1)C(=O)C(CC(C)=O)=C(C)C2=O | MTT | Panc-1 | 73.5 µg/mL
Cc1cn([C@@H]2O[C@H](CO)[C@@H](O)[C@@H]2O)c(=O)[nH]c1=O |  | CCRF-HSB-2 | 232 µM
OCC(CO)OCn1c(Br)nc2cc(Cl)c(Cl)cc21 | visual reading | HFF | >100 µM
[Cl][Co][Cl] |  | Vero epithelial cells | 3410 µM
NC1=NC2C(C=CN2CC(CO)CCO)C(=O)N1 |  | CD4+ T lymphocytes | 230 µM
Nc1ncnc2c1c(-c1cccs1)cn2[C@@H]1O[C@H](CO)[C@@H](O)[C@H]1F | XTT | Replicon cells | >44 µM
CCCOc1ccc(NC(=O)NOCCCCCC(=O)NO)cc1 | sulforhodamine | NFF cells | 11.9 µM
CCCCOc1nc(N)c2c(n1)N(Cc1cccc(CN3CCCC3)c1)CC(=O)N2 | luminescence | Macrophage | 22 µM
Nc1nc(=O)n([C@@H]2O[C@H](CO)[C@@H](CO)[C@@H]2F)cc1F |  | PBM | ≥100 µM
CCC(c1cc(C)ccc1C)S(=O)(=O)c1c(C)ccc[n+]1[O-] | cell count | CEM | 20 µg/mL
O=C(N/N=C/c1ccccc1O)Nc1cccc2nsnc12 | luminescence | Cf2Th-CD4/CCR5 | <0.5 µM
COc1cccnc1SCc1cc(C)ccc1C | cell count | CEM | 78 µg/mL
C[C@H](NP(=O)(OC[C@H]1O[C@@H](n2cc(I)c(=O)[nH]c2=O)C(F)(F)[C@@H]1O)Oc1ccccc1)C(=O)OCc1ccccc1 | MTS | CrFK | >70 µM
CCCCCCCCCCCC(Sc1cccc[n+]1[O-])c1cc(C)ccc1C | cell count | CEM | 25 µg/mL
Nc1ncnc2c1ncn2[C@@H]1S[C@H](CO)[C@@H](O)[C@@H]1F |  | CCRF-HSB-2 | 189 µM
CCCCCCCCCCCCCCCC(=O)OC[C@H]1O[C@H](O[C@@H]2O[C@H](CO)[C@@H](O)[C@H](O)[C@H]2O)[C@@H](O)[C@@H](O)[C@@H]1O |  | TZM-b1 | 52.51 µM
CC1(C)C(=O)NN=C1c1cccc(NC(=O)Nc2ccc(F)c(Cl)c2)c1 |  | NHDF | >10 µM
Nc1ncnc2c1c(-c1ccco1)cn2[C@H]1O[C@H](CO)[C@@H](O)C1(F)F | XTT | Replicon cells | >44 µM
COc1ccc(OC)c(CS(=O)c2cccc[n+]2[O-])c1 | cell count | CEM | ≥100 µg/mL
C=C1CCC(C)=C2Cc3cc(ccc3O)C(=O)O[C@H](C(C)(C)O)CCC(C)(O)[C@H](Br)CCC12 | MTT | DU4475 cells | 18 µM
CC(=O)Nc1ccc(SSc2ccc(NC(C)=O)cc2C(N)=O)c(C(N)=O)c1 | trypan blue | U1 | >100 µM
C[C@@H]1CC[C@]2(C(=O)O)CC[C@]3(C)C(CCC4[C@@]5(C)CC[C@H](O)C(C)(C)C5CC[C@]43C)C2[C@H]1C | MTT | LLCMK2 cells | 9.9 µg/mL
Nc1nc2c(ncn2[C@@H]2O[C@H](CO)[C@@H](O)[C@@H]2O)c(=O)[nH]1 |  | CCRF-HSB-2 | 9.9 µM
Cc1ccc(C)c(CS(=O)(=O)c2cccc[n+]2[O-])c1C | cell count | CEM | 11 µg/mL
CCC(CC)O[C@@H]1C=C(C(=O)O)C[C@H](N)[C@H]1NC(C)=O | neutral red | MDCK | >100 µM
OCCOCn1c(=S)[nH]c2c(Cl)c(Cl)ccc21 |  | KB | >100 µM
Cc1ccccc1C(C#N)S(=O)c1cccc[n+]1[O-] | cell count | CEM | 0.67 µg/mL
CC(C)[C@@H]1NC(=O)[C@@H](C(C)C)OC(=O)[C@H](C(C)C)N(C)C(=O)[C@@H](C(C)C)OC(=O)[C@H](C(C)C)N(C)C(=O)[C@@H](C(C)C)OC1=O | absorbance | NCI-H187 | 1.94 µM
COc1ccc2c(c1)C=C1Cn3c-2c(C2CCCCC2)c2ccc(cc23)C(=O)NS(=O)(=O)N(C)CCOCCN(C)C1=O | resazurin | HEK293T | >50 µM
Cc1ccc[n+]([O-])c1SCc1c(Cl)cccc1Cl | cell count | CEM | 31 µg/mL
O=C(Nc1ccc(NC(=S)Nc2ccc(C(F)(F)F)c(Cl)c2)cc1)c1cscn1 | MTS | HFF | ≥10 µg/mL
O=S(=O)(Cc1ccc(-c2ccccc2)cc1)c1cccc[n+]1[O-] | cell count | CEM | 4.6 µg/mL
Cc1cc(=O)[nH]c2c1ccc1ncc(C(=O)O)c(C)c12 |  | CAKI-1 | 11 µg/mL
O=C(Nc1ccc(NC(=S)Nc2ccc(C(F)(F)F)c(Cl)c2)cc1)c1cocn1 | MTS | HFF | ≥10 µg/mL
COc1ccc(CS(=O)(=O)c2cccc[n+]2[O-])cc1OC | cell count | CEM | 41 µg/mL

For reference, 12 entries again:

SMILES,method,cells,result
O=C(Nc1ccc(NC(=S)Nc2cccc(C(F)(F)F)c2)cc1)c1ccco1,MTS,HFF,≥10 µg/mL
Nc1ncnc2c1c(-c1cccs1)cn2[C@@H]1O[C@H](CO)[C@@H](O)[C@H]1F,XTT,Replicon cells,>44 µM
CC(C)n1c(-c2cccc(NC(=O)Nc3cccc(Cl)c3)c2)n[nH]c1=O,,NHDF,20 µM
COc1cc([C@@H]2CCc3ccc(O)cc3O2)ccc1O,resazurin,NCI-H187,>20 µg/mL
O=S(=O)(Cc1ccc(-c2ccccc2)cc1)c1cccc[n+]1[O-],cell count,CEM,4.6 µg/mL
COc1cccc2[nH]c3ccccc3c(=O)c12,,OM-10.1,17 µg/mL
OCC(CO)OCn1c(Br)nc2cc(Cl)c(Cl)cc21,visual reading,HFF,>100 µM
Cn1c2ccccc2c(=O)c2c(O)cccc21,,U-937,35 µg/mL
COc1cc(O)c2c(c1)C(=O)C(CC(C)=O)=C(C)C2=O,MTT,Panc-1,73.5 µg/mL
O=C(O)c1c(=O)c2cc(F)c(N3CCC4(CC3)OCCO4)cc2n2c1sc1ccccc12,MTT,Vero mammalian cells,>137.5 µM
C=C1CCC(C)=C2Cc3cc(ccc3O)C(=O)O[C@H](C(C)(C)O)CCC(C)(O)[C@H](Br)CCC12,MTT,DU4475 cells,18 µM
Nc1ncnc2c1ncn2[C@@H]1S[C@H](CO)[C@@H](O)[C@@H]1F,,CCRF-HSB-2,189 µM